Measurements published in article PMC6672008, “Small molecule degraders of the hepatitis C virus protease reduce susceptibility to resistance mutations” (Nature Communications, 2019).
“And” between values parts separate entries of the source, which are not always exact repeats. Identical values can stand only once.

Amino acid sequences for entries named in this document (tags omitted). Residues count along the entry.
UniProt Q99IB8, 1031-1661 limits assumed: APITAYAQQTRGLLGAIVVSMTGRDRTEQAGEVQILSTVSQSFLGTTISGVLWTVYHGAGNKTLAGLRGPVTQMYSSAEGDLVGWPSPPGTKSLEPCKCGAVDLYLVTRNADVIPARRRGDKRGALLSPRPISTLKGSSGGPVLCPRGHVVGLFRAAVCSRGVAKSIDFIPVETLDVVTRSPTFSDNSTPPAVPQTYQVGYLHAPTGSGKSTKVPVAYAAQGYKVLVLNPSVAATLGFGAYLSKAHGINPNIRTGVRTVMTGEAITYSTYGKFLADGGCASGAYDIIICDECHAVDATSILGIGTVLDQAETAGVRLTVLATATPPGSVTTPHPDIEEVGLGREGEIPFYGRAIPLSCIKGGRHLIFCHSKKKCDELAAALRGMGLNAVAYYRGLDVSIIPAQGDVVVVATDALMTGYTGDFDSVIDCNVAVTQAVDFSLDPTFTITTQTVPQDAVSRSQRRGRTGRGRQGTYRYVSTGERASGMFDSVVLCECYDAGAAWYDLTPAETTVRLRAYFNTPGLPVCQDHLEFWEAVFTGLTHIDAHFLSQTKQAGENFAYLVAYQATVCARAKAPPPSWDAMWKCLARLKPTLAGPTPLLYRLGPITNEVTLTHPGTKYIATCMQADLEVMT
UniProt Q99IB8, 1662-1715 partner limits assumed: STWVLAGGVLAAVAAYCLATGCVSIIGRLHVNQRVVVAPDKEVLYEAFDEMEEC

What follows are molecules tested against HCV NS3/4A protease (Hepatitis C virus genotype 2a, UniProt Q99IB8) (assay: biochemical). Conditions: NS3/4A protease inhibition IC50, average value reported, average of n ≥ 3 independent experiments; cleavage measured 1 h at 30 °C.
For `CCC[C@H](NC(=O)[C@@H]1[C@H]2CCC[C@H]2CN1C(=O)[C@@H](NC(=O)[C@@H](NC(=O)c1cnc(C(=O)NCCOCCOCCNc2cccc3c2C(=O)N(C2CCC(=O)N(C)C2=O)C3=O)cn1)C1CCCCC1)C(C)(C)C)C(=O)C(=O)NC1CC1` (stereo partly drawn) [DGY-04-035-BUMP], the IC50 was 277 nM.
With `CCC[C@H](NC(=O)[C@@H]1[C@H]2CCC[C@H]2CN1C(=O)[C@@H](NC(=O)[C@@H](NC(=O)c1cnc(C(=O)NCCOCCOCCNc2cccc3c2C(=O)N(C2CCC(=O)NC2=O)C3=O)cn1)C1CCCCC1)C(C)(C)C)C(=O)C(=O)NC1CC1` (stereo partly drawn) [DGY-04-035] the IC50 was 296 nM and 265 nM.
`CCC[C@H](NC(=O)[C@@H]1[C@H]2CCC[C@H]2CN1C(=O)[C@@H](NC(=O)[C@@H](NC(=O)c1cnc(C(=O)NCCCCCCNc2cccc3c2CN(C2CCC(=O)NC2=O)C3=O)cn1)C1CCCCC1)C(C)(C)C)C(=O)C(=O)NC1CC1` (stereo partly drawn) [DGY-03-081] was tested, and the IC50 was 385 nM.
With `CCC[C@H](NC(=O)[C@@H]1[C@H]2CCC[C@H]2CN1C(=O)[C@@H](NC(=O)[C@@H](NC(=O)c1cnc(C(=O)NCCOCCOCCOc2cc3c4c(cccc4c2)C(=O)N(C2CCC(=O)N(C)C2=O)C3=O)cn1)C1CCCCC1)C(C)(C)C)C(=O)C(=O)NC1CC1` (stereo partly drawn) [DGY-08-097-BUMP] the IC50 was 76 nM.

Same assay, conditions: NS3/4A protease inhibition IC50, single experiments, individual independent experiments (source data)
For `CCC[C@H](NC(=O)[C@@H]1[C@H]2CCC[C@H]2CN1C(=O)[C@@H](NC(=O)[C@@H](NC(=O)c1cnc(C(=O)NCCOCCOCCOc2cc3c4c(cccc4c2)C(=O)N(C2CCC(=O)NC2=O)C3=O)cn1)C1CCCCC1)C(C)(C)C)C(=O)C(=O)NC1CC1` (stereo partly drawn) [DGY-08-097], the IC50 was 258 nM and 192 nM and 291 nM.
In the case of `CCC[C@H](NC(=O)[C@@H]1[C@H]2CCC[C@H]2CN1C(=O)[C@@H](NC(=O)[C@@H](NC(=O)c1cnc(C(=O)NCCOCCOCCOc2cc3c4c(cccc4c2)C(=O)N(C2CCC(=O)N(C)C2=O)C3=O)cn1)C1CCCCC1)C(C)(C)C)C(=O)C(=O)NC1CC1` (stereo partly drawn) [DGY-08-097-BUMP], the IC50 is reported as 118 nM and 32 nM and 78 nM.
